Results deposited as PubChem BioAssay AID1259414 (Drosophila RNAi Screening Center, 2018).

- Test: 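Genome-wide screen for host control of endosymbiont load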 (primary screen)
- Cell system: Drosophila JW18 cells infected with Wolbachia
- Reagent: long dsRNA against Drosophila genes, 0.25 µg dsRNA per well of a 384-well plate
- Timing: 5 days
- Challenge: cells persistently infected with Wolbachia before knock-down; no added drug
- Measured: 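Automated imaging of bacterial rRNA staining divided by host cell count, reported as plate-normalised robust z-score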
- Reading the numbers: Wolbachia per cell robust z: higher = more Wolbachia per host cell than the plate typical
- Call rule: 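Hit when robust z is 1.5 or more, or -1.5 or less, in at least two of three replicates; excludes dsRNAs with several or no targets, genes not expressed in JW18 and well A1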
The deposit covers about 24,000 reagents; this is a random part of those that have a named target and a result. In the full data, about 1,210 (5%) were called active. 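Inactive calls also include excluded dsRNAs with several or no targets, genes unexpressed in JW18, and well A1, regardless of score.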 Reagent sequences are not shown.

Against lncRNA:CR30055 (long non-coding RNA:CR30055) [DRSC22439], the entry reads Wolbachia per cell robust z, rep 1 = 0.339; Wolbachia per cell robust z, rep 2 = 0.284; Wolbachia per cell robust z, rep 3 = 0.371; inactive.
Depletion of lncRNA:CR30055 (long non-coding RNA:CR30055) [DRSC26506] resulted in: Wolbachia per cell robust z, rep 1 = 1.09; Wolbachia per cell robust z, rep 2 = 0.833; Wolbachia per cell robust z, rep 3 = 0.326; inactive.
With knock-down of Hr38 (Hormone receptor-like in 38) [DRSC23230] the results were Wolbachia per cell robust z, rep 1 = 0.363; Wolbachia per cell robust z, rep 2 = 0.989; Wolbachia per cell robust z, rep 3 = 0.557; inactive.
Knock-down of Hr38 (Hormone receptor-like in 38) [DRSC28077] resulted in: Wolbachia per cell robust z, rep 1 = 0.68; Wolbachia per cell robust z, rep 2 = 0.213; Wolbachia per cell robust z, rep 3 = 1.52; inactive.
Silencing of Tdh (L-threonine dehydrogenase) [DRSC11788] resulted in: Wolbachia per cell robust z, rep 1 = 1.17; Wolbachia per cell robust z, rep 2 = -0.334; Wolbachia per cell robust z, rep 3 = 0.886; inactive.
Knock-down of DIP-kappa (Dpr-interacting protein kappa) [DRSC01336] gave: Wolbachia per cell robust z, rep 1 = -0.797; Wolbachia per cell robust z, rep 2 = -4.4; Wolbachia per cell robust z, rep 3 = -7.97; inactive.
Against DIP-kappa (Dpr-interacting protein kappa) [DRSC01337], the values are Wolbachia per cell robust z, rep 1 = 1.3; Wolbachia per cell robust z, rep 2 = 0.122; Wolbachia per cell robust z, rep 3 = -0.192; inactive.

Limited to “Wolbachia per cell robust z, rep 1” (2 entries from above):
DIP-kappa (Dpr-interacting protein kappa) [DRSC01336]	-0.797
DIP-kappa (Dpr-interacting protein kappa) [DRSC01337]	1.3

The listing continues.
CG32374 [DRSC10986] scored Wolbachia per cell robust z, rep 1 = -0.113; Wolbachia per cell robust z, rep 2 = 0.254; Wolbachia per cell robust z, rep 3 = -1.89; inactive.
CG11693 [DRSC14353] showed Wolbachia per cell robust z, rep 1 = 0.338; Wolbachia per cell robust z, rep 2 = 0.959; Wolbachia per cell robust z, rep 3 = 0.835; inactive.
For CG11693 [DRSC28503] the deposit lists Wolbachia per cell robust z, rep 1 = -1.25; Wolbachia per cell robust z, rep 2 = -0.37; Wolbachia per cell robust z, rep 3 = 0.192; inactive.
CG15097 [DRSC06526] showed Wolbachia per cell robust z, rep 1 = 0.423; Wolbachia per cell robust z, rep 2 = 0.549; Wolbachia per cell robust z, rep 3 = -0.0262; inactive.
Depletion of CG15097 [DRSC27170] came out at: Wolbachia per cell robust z, rep 1 = 0.563; Wolbachia per cell robust z, rep 2 = 1.53; Wolbachia per cell robust z, rep 3 = 0.639; inactive.
